Measured values from several laboratories, pooled; numbers as filed in NIAID ChemDB.

Common to all: growth or infection tests; organism: Mycobacterium tuberculosis

ECn: concentration that inhibits the pathogen or its effect by n%.

structure,method,endpoint,dose,changes,strain or isolate,value
C=C1C(=O)O[C@@H]2C[C@H]1CC[C@]1(C)O[C@H]1CC/C(C)=C/CC[C@]2(C)O,BACTEC,MIC,,,H37Rv,≥12.5 µg/mL
CN[C@@H]1[C@H](O[C@H]2[C@H](O[C@H]3[C@H](O)[C@@H](O)[C@H](N=C(N)N)[C@@H](O)[C@@H]3N=C(N)N)O[C@@H](C)[C@]2(O)C=O)O[C@@H](CO)[C@H](O)[C@H]1O,,MIC,,,U118,0.25 µg/mL
O=C1C(=O)N(CCCCBr)c2ccc(C3CCCCC3)cc21,,MIC,,,H37Rv,≤20 µg/mL
O=C1C(=O)c2ccccc2C(O)=C1C(C1=C(O)c2ccccc2C(=O)C1=O)c1ccc(Cl)cc1Cl,BACTEC,MIC,,,H37Rv,≥12.8 µg/mL
Cc1cc2oc(=O)c(C3=NNC(c4ccc(Cl)cc4Cl)C3)c(O)c2cc1C,agar,MIC90,,Isoniazid-resistant,INHR-MTB,>6.25 µg/mL
COc1ccc(C(=O)/C=C/c2ccccc2)c(O)c1,,MIC,,,H37Rv,>12.5 µg/mL
Cc1ccc2[nH]c3c(C)c4cc[n+](C)cc4c(C)c3c2c1,resazurin / fluorescence,MIC,,MDR,Jal 2287,12.5 µM
Cc1cc2oc(=O)c(C3=NNC(c4ccc(C(F)(F)F)cc4)C3)c(O)c2cc1C,agar,MIC90,,,H37Rv,>6.25 µg/mL
O=c1c(Br)c(-c2ccccc2)oc2ccccc12,,inhibition,12.5 µg/mL,,H37Rv,0%
Cc1ccc(-c2cc(CN3CCOCC3)c(C)n2-c2ccc(F)cc2)cc1,,MIC,,V240M R735C,H37Rv DR9,1.35 µM
CCN(CCCCCN1C(=O)C(=O)c2cc(C3CCCCC3)ccc21)Cc1ccccc1,,MIC,,,H37Ra,≤20 µg/mL
CC(=O)NC[C@H]1CN(c2ccc(N3CCOCC3)c(F)c2)C(=O)O1,,MIC50,,,42 isolates,0.5 µg/mL
Cc1ccc(/C=C2/CN([C@H](C)c3ccccc3)CC3(ON=C(c4ccccc4)[C@H]3c3ccc(C)cc3)[C@@]23ON=C(c2ccccc2)O3)cc1,,MIC,,,H37Rv,9.68 µM
CC(=O)c1cccc(NC(=O)C(=O)NNc2n[nH]c(=S)n2N)c1,BACTEC,inhibition,12.5 µg/mL,,H37Rv,91%
CCCCCCCCCCCN1C(=O)C(=O)c2cccc(-c3ccccc3)c21,,MIC,,,H37Rv,≤20 µg/mL
C[C@H](c1ccccc1)N1C/C(=C\c2ccccc2Cl)C(=O)/C(=C/c2ccccc2Cl)C1,,MIC,,,H37Rv,13.95 µM
O=C1C(=O)N(CCN2CCN(Cc3ccccc3)CC2)c2c1cccc2C1CCCC1,,MIC,,,H37Ra,≤20 µg/mL
CC(=O)Nc1cccc2ccc(C3CCCCC3)nc12,,inhibition,6.25 µg/mL,,H37Rv,1%
C1COCCN1.S=C(S)N1CCOCC1,BACTEC,MIC bound,,,H37Rv,>12.5 µg/mL
C[C@H](c1ccccc1)N1C/C(=C\c2ccc(Cl)cc2)[C@@]2(ON=C(c3ccccc3)O2)[C@@]2(C1)ON=C(c1ccccc1)[C@@H]2c1ccc(Cl)cc1,,MIC,,,H37Rv,18.2 µM
CCCCCOc1c(C(C)=O)cc([N+](=O)[O-])c2nccc(CC)c12,,inhibition,6.25 µg/mL,,H37Rv,48%
CCN(C(=O)COc1cc2c(O)c3c(O)c(C)c4c(c13)C(=O)[C@@](C)(O/C=C/[C@H](OC)[C@@H](C)[C@@H](OC(C)=O)[C@H](C)[C@H](O)[C@H](C)[C@@H](O)[C@@H](C)/C=C/C=C(/C)C(=O)N2)O4)N(C)C,,EC50,,,,0.18 µg/mL
Cc1c2ccncc2c(C)c2c1[nH]c1ccc(Br)cc12,resazurin / fluorescence,MIC,,MDR,Jal 2287,>100 µM
CCCc1ccc(-n2c(-c3ccc(OC)cc3)cc(CN3CCOCC3)c2C)cc1,,MIC90,,,H37Rv,7.31 µM
Cc1cccc(/C=N/NC(=S)N(C)C)n1.[Cl][Cu][Cl],,MIC90,,,V2475,0.78 µM
O=C1NC(=S)N/C1=C/C=C/c1ccccc1,BACTEC,EC50,,,H37Rv,<6.25 µg/mL
CCCN(CCC)N(CC)C(=O)COc1cc2c(O)c3c(O)c(C)c4c(c13)C(=O)[C@@](C)(O/C=C/[C@H](OC)[C@@H](C)[C@@H](OC(C)=O)[C@H](C)[C@H](O)[C@H](C)[C@@H](O)[C@@H](C)/C=C/C=C(/C)C(=O)N2)O4,,EC50,,,,0.18 µg/mL
Nc1nc(NCc2ccco2)cc(=O)[nH]1,BACTEC,inhibition,12.5 µg/mL,,H37Rv,-13%
C=CCOc1cccc(/C=C2/NC(=S)NC2=O)c1,BACTEC,EC50,,,H37Rv,<6.25 µg/mL
CC(=O)c1cc(N)c2nc(C(C)(C)C)ccc2c1,,inhibition,6.25 µg/mL,,H37Rv,0%
O=C(Nn1c(-c2ccccc2)nc2ccccc2c1=O)c1ccccn1,resazurin,MIC bound,,,H37Rv,>6.25 µg/mL
COc1cccc(C2CC(c3c(O)c4ccccc4oc3=O)=NN2c2ccccc2)c1O,agar,MIC90,,Isoniazid-resistant,INHR-MTB,>6.25 µg/mL
CCCCCCN1C(=O)C(=O)c2cccc(-c3ccccc3)c21,,MIC,,,H37Ra,≤20 µg/mL
COc1cccc(C2CC(c3c(O)c4cc(C)c(C)cc4oc3=O)=NN2)c1O,agar,MIC90,,Isoniazid-resistant,INHR-MTB,>6.25 µg/mL
O=C1NC(=S)N/C1=C/c1ccccc1Br,BACTEC,inhibition,6.25 µg/mL,,H37Rv,26%
C[C@H]1CN[C@@H]2[C@@H](C)[C@H]3[C@@H](C[C@H]4[C@@H]5CC[C@H]6C[C@@H](N)CC[C@]6(C)[C@H]5CC[C@]34C)O[C@@]2(O)C1,BACTEC,MIC,,,H37Rv,≥12.8 µg/mL
COc1ccc(/C=C/C(=O)c2ccc(Br)cc2O)cc1,,MIC,,,H37Rv,>12.5 µg/mL
COc1ccc(-c2cc(CN3CCSCC3)c(C)n2-c2ccc(F)cc2)cc1,,MIC90,,,H37Rv,10.08 µM
COc1cc(C)c(/C=C2/NC(=S)NC2=O)cc1C,BACTEC,inhibition,6.25 µg/mL,,H37Rv,43%
S=C(S)Nc1cccc2ccccc12,BACTEC,inhibition,12.5 µg/mL,,H37Rv,-5%
O=C1NC(=S)N/C1=C\c1ccc(O)cc1,BACTEC,inhibition,6.25 µg/mL,,H37Rv,46%
O=[N+]([O-])c1cccc2c(C3CCCCC3)cc(C3CCCCC3)nc12,,MIC,,,Ethambutol-resistant,6.25 µg/mL
O=C1C(=O)N(CCN2CCN(Cc3ccccc3)CC2)c2c1cccc2C1CCCCC1,,MIC,,,H37Rv,≤20 µg/mL
Cc1ccc(NC(=O)c2cc3c(cc2Cl)Sc2nccn2S3(=O)=O)cc1,resazurin,inhibition,6.25 µg/mL,,H37Rv,2%
NNC(=O)c1ccncc1,resazurin / fluorescence,MIC,,Drug-resistant,BND320,>100 µg/mL
COc1ccc(-c2cc(=O)c3c(O)cc(O)c(-c4cc(-c5cc(=O)c6c(O)cc(OC)cc6o5)ccc4OC)c3o2)cc1,BACTEC,MIC,,,H37Rv,≥12.8 µg/mL
Cc1c(N2CCN(Cc3ccc4c(c3)OCO4)CC2)c([N+](=O)[O-])cc2c(=O)c(C(=O)O)cn(C(C)(C)C)c12,,MIC,,,H37Rv,23.92 µM
C[C@H](c1ccccc1)N1CC(=Cc2cccc3ccccc23)[C@]2(ON=C(c3ccccc3)O2)C2(C1)ON=C(c1ccccc1)[C@H]2c1cccc2ccccc12,,MIC,,,H37Rv,4.36 µM
CO[C@H]1/C=C/O[C@@]2(C)Oc3c(C)c(O)c4c(O)c(c(/C=N/N5CCN(C6CCCC6)CC5)c(O)c4c3C2=O)NC(=O)/C(C)=C\C=C\[C@H](C)[C@H](O)[C@@H](C)[C@@H](O)[C@@H](C)[C@H](O)[C@@H]1C,,MIC,,,Isolate 900216 drug-susceptible,0.25 µg/mL
C[n+]1ccn2cc(S(=O)(=O)[O-])ccc21,BACTEC,inhibition,12.5 µg/mL,,H37Rv,0%
COc1ccc(-c2oc3ccc(C(=O)O)cc3c(=O)c2O)cc1,,MIC,,,H37Rv,>12.5 µg/mL
CCCCOc1c(C(C)=O)cc([N+](=O)[O-])c2nccc(CC)c12,,MIC,,,H37Rv,>6.25 µg/mL
O=C(/C=C/c1ccccn1)c1c(O)c2ccccc2oc1=O,agar,MIC90,,,H37Rv,>6.25 µg/mL
CCCCCc1cc(/C=C2/N=C(c3ccc[nH]3)C=C2OC)[nH]c1C,,MIC,,,INH-r,0.8 µg/mL
COc1cccc(/C=C2/NC(=S)NC2=O)c1OC,BACTEC,EC50,,,H37Rv,>6.25 µg/mL
C[C@H](c1ccccc1)N1C[C@@]2(ON=C(c3ccccc3)[C@H]2c2ccccc2Br)C2(ON=C(c3ccccc3)O2)[C@]2(C1)ON=C(c1ccccc1)[C@H]2c1ccccc1Br,,MIC,,,H37Rv,3.5 µM
O=C1C(=O)N(CCN2CCN(Cc3ccccc3)CC2)c2ccc(N3CCCCC3)cc21,,MIC,,,H37Rv,≤20 µg/mL
COc1c(I)c(OC)c2c(c1I)OC1OCCC21,BACTEC,inhibition,12.5 µg/mL,,H37Rv,1%
Nc1ncccc1/C=C/C(=O)c1cc2ccccc2cc1O,,MIC,,,H37Rv,>12.5 µg/mL
C/C=C1\C(=O)O[C@]23C=C[C@@H]4C(C(=O)OC)=CO[C@H](O[C@@H]12)[C@@H]43,MTT,MIC,,,MDR1 clinical isolate,2.2 µg/mL
Cc1c(N2CCC(N3CCCCC3)CC2)c([N+](=O)[O-])cc2c(=O)c(C(=O)O)cn(C3CC3)c12,,MIC,,,H37Rv,6.89 µM
C=CCOc1ccc(/C=C2/NC(=S)NC2=O)cc1,BACTEC,inhibition,6.25 µg/mL,,H37Rv,93%
NNC(=O)c1ccncc1,,MIC,,,MDR-TB,11.38 µM
CCc1ccc(-c2cc(CN3CCOCC3)c(C)n2-c2ccc(F)cc2)cc1,,MIC,,V681I,H37Rv DR2,0.66 µM
CCCCc1[nH]ccc2c(C)c3nc4ccccc4c3cc12,resazurin,MIC bound,,,H37Rv,<6.25 µg/mL
CO[C@H]1/C=C/O[C@@]2(C)Oc3c(C)c(O)c4c(O)c(cc(OCC(=O)NN5C(=O)CNC5=O)c4c3C2=O)NC(=O)/C(C)=C\C=C\[C@H](C)[C@H](O)[C@@H](C)[C@@H](O)[C@@H](C)[C@H](OC(C)=O)[C@@H]1C,,EC50,,,,1.2 µg/mL
COc1cccc(/C=C/C(=O)c2c(O)c3cc(C)c(C)cc3oc2=O)c1O,agar,MIC90,,,H37Rv,>6.25 µg/mL
CSC(=S)N/N=C(/C)c1cccs1,,MIC,,,INH-r,0.4 µg/mL
NC[C@@H]1O[C@H](O[C@H]2[C@@H](O)[C@H](O[C@@H]3[C@@H](O)[C@H](N)C[C@H](N)[C@H]3O[C@H]3O[C@H](CO)[C@@H](O)C[C@H]3N)O[C@@H]2CO)[C@H](N)[C@@H](O)[C@@H]1O[C@H]1O[C@H](CO)[C@@H](O)[C@H](O)[C@@H]1O,,EC50,,,H37Rv (ethionamide-resistant),25–50 µg/mL
Cc1c(N2CCN(C(=O)C3COc4ccccc4O3)CC2)c([N+](=O)[O-])cc2c(=O)c(C(=O)O)cn(-c3ccc(F)cc3F)c12,,MIC,,,H37Rv,>20.61 µM
Cc1c2cc[n+](C)cc2c(C)c2c1[nH]c1ccc(Cl)cc12,resazurin / fluorescence,MIC,,,,1 µg/mL
Cc1nc2c(cc1C(=O)N/N=C/c1ccc([N+](=O)[O-])cc1)c(=O)n(C)c(=O)n2C,resazurin,MIC bound,,,H37Rv,>6.25 µg/mL
CCCOc1ccc(/C=C2/NC(=S)NC2=O)cc1,BACTEC,inhibition,6.25 µg/mL,,H37Rv,95%
CCOc1ccc2nc(NC(=O)c3c/c(=N\NC(=O)C[N+](C)(C)C)c4ccc(O)cc4o3)sc2c1.[Cl-],BACTEC,MIC bound,,,H37Rv,≤12.5 µg/mL
NC(=O)c1cnccn1,,MIC,,,Isolate 8989,>900 µg/mL
O=c1c2ccccc2nc(-c2ccccc2)n1NC(=S)Nc1ccccc1,resazurin,inhibition,6.25 µg/mL,,H37Rv,-21%
CCc1ccc(-c2cc(CN3CCOCC3)c(C)n2-c2ccc(Cl)cc2)cc1,,MIC90,,,H37Rv,>321 µM
NNc1ccc2cccc(O)c2n1,BACTEC,inhibition,12.5 µg/mL,,H37Rv,100%
CCCCN(CCCC)N(CC)C(=O)COc1cc2c(O)c3c(O)c(C)c4c(c13)C(=O)[C@@](C)(O/C=C/[C@H](OC)[C@@H](C)[C@@H](OC(C)=O)[C@H](C)[C@H](O)[C@H](C)[C@@H](O)[C@@H](C)/C=C/C=C(/C)C(=O)N2)O4,,EC50,,,,0.09 µg/mL
CC1CN(C(=S)S)C(C)CN1C(=S)S,resazurin,inhibition,6.25 µg/mL,,H37Rv,-4%
Cc1c(N2CCc3ccccc3C2C(=O)NC(C)(C)C)c([N+](=O)[O-])cc2c(=O)c(C(=O)O)cn(-c3ccc(F)cc3F)c12,,MIC,,,H37Rv,84.66 µM

MIC bound: limit read from a one-dose screen. Inhibition is in % at the dose shown (toxicity tests: loss of growth or viability). Blank or dashed fields: not listed here. a–b is a range or a potency band. A number after MIC or MFC names an inhibition level or a share of isolates. Neighbouring rows are from separate reports.